25 compounds from patent US9428542B2, “Lupane triterpenoid derivatives and pharmaceutical use thereof” (priority 2012, dated 2016) can be followed below.

The structures appear in SMILES notation.

In the data set the test system is HIV-1IIIB. Kind of data set: HIV-1 full replication assay (HIV-1IIIB-infected MT-2 cells, supernatant read out on TZM-bl cells, β-Gal). Type of data set: cell-based. Conditions: Therapeutic Index (TI)=TC50/IC50. Here is the method:
The antiviral activity of the compounds of the present invention was determined in a HIV-1 full replication assay.
In this assay, MT-2 cells that are infected with HIV-1IIIB were co-cultured with different concentration of the tested compounds for 3 days and then supernatant is transferred into new 384-well plates containing TZM-bl cells (also called JC53-bl). TZM-bl cells that could be infected by various kinds of HIV-1 strains stably express a great amount of HIV-1 receptor, co-receptor CD4 molecular, and co-receptor CXCR4 and CCR5. TZM-bl cells harbor LTR-luciferase and β-gal two report genes. The expression of luciferase and β-gal reporter directed by HIV-1 LTR can be activated by Tat protein generated after HIV infection, and the quantity of expression is proportional to the quantity of HIV-1. Compounds that interfere with virus replication in MT-2 cells, maturation of the virus, or post-entry steps in the HIV lifecycle decrease the luciferase signal or β-gal signal. In this experiment, BVM (Bevirimat, PA-457) is used as a positive control drug.
Method for Inhibiting HIV-1 Replication Assay:
The MT-2 cells are infected at a Multiciplicity (MOI) of 0.01 TCID50, and then the MT-2 cells suspension was diluted to a needed concentration. 90 μl of the MT-2 cells suspension from above was added into 384-well plates containing 10 μl of the tested compounds.
Compounds were dissolved in DMSO and tested as 11 points 3-fold serial dilutions. After addition of cells to compound plates, plates were placed to humidified 5% CO2 37 incubator for 3 days. 10 μl of cells culture supernatant from the incubated plates was transferred into new black 384-well plates.
Adjusted the TZMb1 cells concentration and 40 μl of TZMb1 cells was added into each well in the black 384-well plates. After addition of the TZMb1 cells to the black plates, black plates were placed to humidified 5% CO2 37 incubator for 24 h, then β-Gal activity was measured.
The anti viral activity %=(measured number-lowest mean number)/(highest mean number-lowest mean number)×100. The IC50 values were calculated by Median Equation and the IC curve was generated by Graphpad Prism V 5.03.
TC50 is referred to the toxicity in MT-2 cells by the compounds tested at 50% concentration; IC50 is referred to the inhibiting HIV-1IIIB replication in MT-2 cells by the compounds tested at 50% concentration; Therapeutic Index (TI)=TC50/IC50.
As to `CC(C)C1=C2[C@H]3CC[C@@H]4[C@@]5(C)CC[C@H](OC(=O)CC(C)(C)C(=O)O)C(C)(C)[C@@H]5CC[C@@]4(C)[C@]3(C)CC[C@@]2(c2cc(=O)n(Cc3ccc(Cl)cc3)n2C)CC1=O` [Compound 91-1], the TI came to 8723. In the case of `CC(C)C1=C2[C@H]3CC[C@@H]4[C@@]5(C)CC[C@H](OC(=O)CC(C)(C)C(=O)O)C(C)(C)[C@@H]5CC[C@@]4(C)[C@]3(C)CC[C@@]2(c2cc(=O)n(CC(=O)O)n2C)CC1=O` [Compound 91-5], the TI turned out to be 76. Under `CC(C)C1=C2[C@H]3CC[C@@H]4[C@@]5(C)CC[C@H](OC(=O)CC(C)(C)C(=O)O)C(C)(C)[C@@H]5CC[C@@]4(C)[C@]3(C)CC[C@@]2(c2cc(=O)n(CC(N)=O)n2C)CC1=O` [Compound 91-6] stands 24000. On to `CNC(=O)Cn1c(=O)cc([C@@]23CC[C@]4(C)[C@H](CC[C@@H]5[C@@]6(C)CC[C@H](OC(=O)CC(C)(C)C(=O)O)C(C)(C)[C@@H]6CC[C@]54C)C2=C(C(C)C)C(=O)C3)n1C` [Compound 91-7], for which the TI is 97143. For `CC(C)C1=C2[C@H]3CC[C@@H]4[C@@]5(C)CC[C@H](OC(=O)CC(C)(C)C(=O)O)C(C)(C)[C@@H]5CC[C@@]4(C)[C@]3(C)CC[C@@]2(c2cc(=O)n(CC(=O)N(C)C)n2C)CC1=O` [Compound 91-8], the TI was 14546.

`CC(C)C1=C2[C@H]3CC[C@@H]4[C@@]5(C)CC[C@H](OC(=O)CC(C)(C)C(=O)O)C(C)(C)[C@@H]5CC[C@@]4(C)[C@]3(C)CC[C@@]2(c2cc(=O)n(Cc3ccc(Cl)cn3)n2C)CC1=O` [Compound 91-9] registered a TI of 152941. `CC(C)C1=C2[C@H]3CC[C@@H]4[C@@]5(C)CC[C@H](OC(=O)CC(C)(C)C(=O)O)C(C)(C)[C@@H]5CC[C@@]4(C)[C@]3(C)CC[C@@]2(c2cc(=O)n(-c3ccc(Cl)cc3)n2C)CC1` [Compound 96-1] returned a TI of 525.

In the case of `CC(C)C1=C2[C@H]3CC[C@@H]4[C@@]5(C)CC[C@H](OC(=O)CC(C)(C)C(=O)O)C(C)(C)[C@@H]5CC[C@@]4(C)[C@]3(C)CC[C@@]2(c2cc(=O)n(-c3ccc(Cl)cc3)n2C)CC1=O` [Compound 98-1], the TI is 14117. Under `COc1ccc(-n2c(=O)cc([C@@]34CC[C@]5(C)[C@H](CC[C@@H]6[C@@]7(C)CC[C@H](OC(=O)CC(C)(C)C(=O)O)C(C)(C)[C@@H]7CC[C@]65C)C3=C(C(C)C)C(=O)C4)n2C)cn1` [Compound 98-2] stands 14667.

Turning to `CC(C)C1=C2[C@H]3CC[C@@H]4[C@@]5(C)CC[C@H](OC(=O)CC(C)(C)C(=O)O)C(C)(C)[C@@H]5CC[C@@]4(C)[C@]3(C)CC[C@@]2(c2cc(=O)n(-c3ccc(F)cc3)n2C)CC1=O` [Compound 98-3], the TI is given as 91304.

`CC(C)C1=C2[C@H]3CC[C@@H]4[C@@]5(C)CC[C@H](OC(=O)CC(C)(C)C(=O)O)C(C)(C)[C@@H]5CC[C@@]4(C)[C@]3(C)CC[C@@]2(c2cc(=O)n(-c3ccc(C#N)cc3)n2C)CC1=O` [Compound 98-4] displayed a TI of 44444. The compound `CCn1c([C@@]23CC[C@]4(C)[C@H](CC[C@@H]5[C@@]6(C)CC[C@H](OC(=O)CC(C)(C)C(=O)O)C(C)(C)[C@@H]6CC[C@]54C)C2=C(C(C)C)C(=O)C3)cc(=O)n1-c1ccc(Cl)cc1` [Compound 98-5] showed a TI of 76471. `CCn1c([C@@]23CC[C@]4(C)[C@H](CC[C@@H]5[C@@]6(C)CC[C@H](OC(=O)CC(C)(C)C(=O)O)C(C)(C)[C@@H]6CC[C@]54C)C2=C(C(C)C)C(=O)C3)cc(=O)n1-c1ccc(Cl)cn1` [Compound 98-6] came in with a TI of 76471. As for `CC(C)C1=C2[C@H]3CC[C@@H]4[C@@]5(C)CC[C@H](OC(=O)CC(C)(C)C(=O)O)C(C)(C)[C@@H]5CC[C@@]4(C)[C@]3(C)CC[C@@]2(c2cc(=O)n(-c3ccc(Cl)cn3)n2C)CC1=O` [Compound 98-7], the TI is recorded as 1176471. Consider `CC(C)C1=C2[C@H]3CC[C@@H]4[C@@]5(C)CC[C@H](OC(=O)CC(C)(C)C(=O)O)C(C)(C)[C@@H]5CC[C@@]4(C)[C@]3(C)CC[C@@]2(c2nnc(-c3ccc(Cl)cc3)s2)CC1=O` [Compound 102], for which the TI was 56.7. Compound `CC(C)C1=C2[C@H]3CC[C@@H]4[C@@]5(C)CC[C@H](OC(=O)CC(C)(C)C(=O)O)C(C)(C)[C@@H]5CC[C@@]4(C)[C@]3(C)CC[C@@]2(Cc2nc(-c3ccc(Cl)cc3)no2)CC1=O` [Compound 108-2] returned a TI of 163.

With `CC(C)C1=C2[C@H]3CC[C@@H]4[C@@]5(C)CC[C@H](OC(=O)CC(C)(C)C(=O)O)C(C)(C)[C@@H]5CC[C@@]4(C)[C@]3(C)CC[C@@]2(Cc2nnc(-c3ccc(Cl)cc3)n2CCN(C)C)CC1=O` [Compound 116-1], the TI was 205882. As to `CNCCn1c(C[C@@]23CC[C@]4(C)[C@H](CC[C@@H]5[C@@]6(C)CC[C@H](OC(=O)CC(C)(C)C(=O)O)C(C)(C)[C@@H]6CC[C@]54C)C2=C(C(C)C)C(=O)C3)nnc1-c1ccc(Cl)cc1` [Compound 116-2], the TI was 5625. Under `CC(C)C1=C2[C@H]3CC[C@@H]4[C@@]5(C)CC[C@H](OC(=O)CC(C)(C)C(=O)O)C(C)(C)[C@@H]5CC[C@@]4(C)[C@]3(C)CC[C@@]2(c2nnc(-c3ccc(Cl)cc3)n2CCN(C)C)CC1=O` [Compound 116-3] stands 60000; under `CC(C)C1=C2[C@H]3CC[C@@H]4[C@@]5(C)CC[C@H](OC(=O)CC(C)(C)C(=O)O)C(C)(C)[C@@H]5CC[C@@]4(C)[C@]3(C)CC[C@@]2(Cc2nnc(-c3ccc(Cl)cc3)n2CCN)CC1=O` [Compound 116-4], 13200. Under `CC(C)C1=C2[C@H]3CC[C@@H]4[C@@]5(C)CC[C@H](OC(=O)CC(C)(C)C(=O)O)C(C)(C)[C@@H]5CC[C@@]4(C)[C@]3(C)CC[C@@]2([C@@H](O)c2nnc(-c3ccc(Cl)cc3)o2)CC1=O` [Compound 127-1] stands 125000. As for `CC(C)C1=C2[C@H]3CC[C@@H]4[C@@]5(C)CC[C@H](OC(=O)CC(C)(C)C(=O)O)C(C)(C)[C@@H]5CC[C@@]4(C)[C@]3(C)CC[C@@]2([C@H](O)c2nnc(-c3ccc(Cl)cc3)o2)CC1=O` [Compound 127-2], the TI was found to be 1800. Under `CC(C)C1=C2[C@H]3CC[C@@H]4[C@@]5(C)CC[C@H](OC(=O)CC(C)(C)C(=O)O)C(C)(C)[C@@H]5CC[C@@]4(C)[C@]3(C)CC[C@@]2([C@@H](O)c2nnc(-c3ccc(Cl)cn3)o2)CC1=O` [Compound 127-3] stands 55000; under `CC(C)C1=C2[C@H]3CC[C@@H]4[C@@]5(C)CC[C@H](OC(=O)CC(C)(C)C(=O)O)C(C)(C)[C@@H]5CC[C@@]4(C)[C@]3(C)CC[C@@]2([C@H](O)c2nnc(-c3ccc(Cl)cn3)o2)CC1=O` [Compound 127-4], 5263; under `CC(C)C1=C2[C@H]3CC[C@@H]4[C@@]5(C)CC[C@H](OC(=O)CC(C)(C)C(=O)O)C(C)(C)[C@@H]5CC[C@@]4(C)[C@]3(C)CC[C@@]2([C@@H](O)c2nnc(-c3ncc(Cl)cn3)o2)CC1=O` [Compound 127-5], 38000.
